A mixed list of measured activities; the numbers were collected in NIAID ChemDB.

Shared fields: whole-cell or culture tests; species: HIV-1; cells: H9; read-out: EC50

Rows are shuffled and stem from different studies. ECn: concentration that inhibits the pathogen or its effect by n%. An empty or dashed field is not shown.

COC(=O)c1ccc(-c2c(C)nc3c(N4CC[C@@H](NC(C)=O)C4)cc(C)nn23)cc1F ; method: p24 ; result: 0.4 µM
CCOC(=O)c1cc(C(=O)c2ccccc2)n2ccc(C(=O)NCc3ccccc3)cc12 ; method: p24 / antigen ; result: 50.9 µM
Cc1cn([C@@H]2O[C@H](COC(c3ccccc3)(c3ccccc3)c3ccccc3)[C@@H](N=[N+]=[N-])[C@H]2F)c(=O)[nH]c1=O ; strain: IIIB ; method: antigen ; result: >1000 µM
CCOC(=O)c1cc(C(=O)N2CCOCC2)n2ccc(C(=O)NCc3ccccn3)cc12 ; method: p24 / antigen ; result: >500 µM
CC(=O)N[C@@H]1CCN(c2cc(C)nn3c(-c4ccc5c(c4)OCO5)c(C)nc23)C1 ; method: p24 ; result: <1 µM
Cc1cn([C@@H]2O[C@H](COC(c3ccccc3)(c3ccccc3)c3ccccc3)[C@@H](F)[C@H]2F)c(=O)[nH]c1=O ; strain: IIIB ; method: antigen ; result: >1000 µM
CCOC(=O)c1cc(C(=O)c2ccccc2)n2ccc(C(=O)N[C@@H](Cc3c[nH]c4ccccc34)C(=O)OC)cc12 ; method: p24 / antigen ; result: 103.2 µM
COc1ccc(-c2c(C)nc3c(N4CC[C@@H](N=[N+]=[N-])C4)cc(C)nn23)cc1OC ; method: p24 ; result: 0.7 µM
CCOC(=O)c1cc(C(=O)c2ccccc2)n2ccc(C(=O)NCc3ccc4ccccc4c3)cc12 ; method: p24 / antigen ; result: 20.1 µM
CC(CO)(CO)NC(=O)c1ccc2c(c1)nc(NCc1cccc3ccccc13)n2C1CCCCCC1 ; method: syncytia ; setting: 2% FBS ; result: 5 µM
Cc1cn([C@@H]2O[C@H](CO)[C@@H](F)[C@@H]2F)c(=O)nc1N ; strain: IIIB ; method: antigen ; result: >1000 µM
COc1ccc(-c2c(C)nc3c(N4CC[C@@H](NC(C)=O)C4)cc(-c4ccccc4)nn23)cc1OC ; method: p24 ; result: 0.7 µM
CC(CO)NC(=O)c1ccc2c(c1)nc(NCc1cccc3ccccc13)n2C1CCCCCC1 ; method: syncytia ; setting: 20% FBS ; result: 1 µM
Cc1cn([C@@H]2O[C@H](CO)[C@@H](F)[C@H]2F)c(=O)[nH]c1=O ; strain: IIIB ; method: antigen ; result: >1000 µM
Cc1cccc(CNc2nc3cc(C(=O)NC(C)(CO)CO)ccc3n2C2CCCCCC2)c1F ; method: syncytia ; setting: 2% FBS ; result: 1.5 µM
COc1ccc(-c2nn(C)c3c(N4CC[C@@H](NC(C)=O)C4)nc(C)nc23)cc1OC ; method: p24 ; result: >100 µM
CCCCNC(=O)c1ccc2c(c1)nc(NCc1cccc3ccccc13)n2C1CCCCCC1 ; method: syncytia ; setting: 20% FBS ; result: 0.3 µM
CC(=O)N[C@@H]1CCN(c2cc(C)nn3c(-c4cccc(N5CCOCC5)c4)c(C)nc23)C1 ; method: p24 ; result: 0.8 µM
Cc1cn([C@@H]2O[C@H](COC(c3ccccc3)(c3ccccc3)c3ccccc3)[C@@H](OS(C)(=O)=O)[C@@H]2F)c(=O)[nH]c1=O ; strain: IIIB ; method: antigen ; result: >1000 µM
CC(CO)NC(=O)c1ccc2c(c1)nc(NCc1ccccc1)n2C1CCCCCC1 ; method: syncytia ; setting: 2% FBS ; result: 1.5 µM

2 of the rows above, restated:

SMILES | strain | method | setting | result
CCOC(=O)c1cc(C(=O)N2CCOCC2)n2ccc(C(=O)NCc3ccccn3)cc12 | - | p24 / antigen | - | >500 µM
Cc1cn([C@@H]2O[C@H](CO)[C@@H](F)[C@H]2F)c(=O)[nH]c1=O | IIIB | antigen | - | >1000 µM